Compound potency records, mixed from different reports. Data source: NIAID ChemDB in PubChem.

Common to all: tests in culture; organism: Rhinovirus

Lines come from different laboratories, so protocols vary. A number after MIC or MFC names an inhibition level or a share of isolates. Blank or dashed fields: not listed here. Inhibition is in % at the dose shown (toxicity tests: loss of growth or viability). ECn: concentration that inhibits the pathogen or its effect by n%.

structure | strain | cells | method | read-out | tested at | value
Fc1cccc(Cn2cnc3c(Nc4cccc(F)c4)nc(C(F)(F)F)nc32)c1 | Serotype 19 | M-HELA | plaque count | EC50 |  | 3.6 µM
O=S(=O)(O)c1cccc2c(O)cccc12 |  | Human embryonic lung cells | cytopathic effect | inhibition | 5 µg/mL | 0%
Cc1ccc(CCCOc2cc(C)c(-c3noc(C(F)F)n3)c(C)c2)nn1 | serotypes 3 4 5 9 16 18 38 66 75 67 | HeLa | cytopathic effect | EC80 |  | 0.11 µg/mL
CN(C)c1nc(C(F)(F)F)nc2c1ncn2Cc1ccccc1Cl | Serotype 5 | M-HELA | plaque count | inhibition | 8 µM | 24%
O=S(=O)([O-])c1cc(S(=O)(=O)[O-])c2cc(NS(=O)(=O)c3ccccc3)ccc2c1 |  | Human amnion AV3 cells | cytopathic effect | inhibition | 5 µg/mL | 20%
CCc1ccc(CCCOc2c(C)cc(-c3nnn(C)n3)cc2C)o1 | serotypes 2 14 1A 1B 6 21 22 15 25 30 50 67 89 86 41 | HeLa | cytopathic effect | EC80 |  | 0.44 µg/mL
Cc1ccccc1Cn1cnc2c(N(C)C)nc(C(F)(F)F)nc21 | Serotype 14 | M-HELA | plaque count | inhibition | 8 µM | 31%
COc1ccc(-c2snc(SC)c2C#N)cc1 | Serotype 85 (group B) | HELA-OHIO | cytopathic effect | EC50 |  | >12 µM
Cc1cc(OCCCc2ccc(=S)[nH]n2)cc(C)c1-c1noc(C(F)F)n1 | serotypes 3 4 5 9 16 18 38 66 75 67 | HeLa | cytopathic effect | EC80 |  | 0.18 µg/mL
Cc1ccc(Cn2cnc3c(N(C)C)nc(C(F)(F)F)nc32)cc1 | Serotype 8 | M-HELA | plaque count | inhibition | 2.5 µM | 41%
Cc1ccc(C(=O)CCCCOc2ccc(C3=NCCO3)cc2)cc1C | serotype 1A 1B 2 6 14 15 21 22 25 29 30 41 42 45 59 63 67 70 72 86 89 |  |  | MIC80 |  | >285 µM
Cc1cc(CCCCCOc2cc(Cl)c(-c3nnc(C)o3)c(Cl)c2)on1 | Serotype 25 |  |  | MIC80 |  | 0.7 µg/mL
COc1ccc(Cn2cnc3c(N(C)C)nc(C(F)(F)F)nc32)cc1C | Serotype 21 | M-HELA | plaque count | inhibition | 8 µM | 16%
CCOC(=O)/C=C/[C@H](C[C@@H]1CCNC1=O)NC(=O)[C@@H](CC(=O)[C@@H](NC(=O)c1cc(C)on1)C(C)C)Cc1ccc(F)cc1 | Isolate 14 | OHIO HELA-I | cytopathic effect / visual reading | EC50 |  | 0.02 µg/mL
CCOC(=O)c1ccc(OCCCCC(=O)c2ccc(OC)cc2)cc1 | serotype 1A 1B 2 6 14 15 21 22 25 29 30 41 42 45 59 63 67 70 72 86 89 |  |  | MIC80 |  | >281 µM
CCO/N=C/c1ccc(OCCC2CCN(c3ccc(Cl)nn3)CC2)cc1 | 211-CV13 (ICAM-1 receptor group 9) | KB | neutral red | EC50 |  | 0.015 µM
CSc1nsc(-c2ccc(OCc3ccccc3)cc2)c1C#N | Serotype 45 (group A) | HELA-OHIO | cytopathic effect | EC50 |  | >50 µM
O=S(=O)(O)c1cc(O)c2c(O)c(N=Nc3ccccc3)c(S(=O)(=O)O)cc2c1 |  | Human embryonic lung cells | cytopathic effect | inhibition | 5 µg/mL | 50%
CSc1nsc(-c2ccc(OCCCCOc3ccccc3)cc2)c1C#N | Serotype 89 (group B) | HELA-OHIO | cytopathic effect | EC50 |  | 2.5 µM
CCCc1ccc(CCCOc2ccc(-c3noc(C4CC4)n3)c(C)c2)nn1 | serotypes 3 4 5 9 16 18 38 66 75 67 | HeLa | cytopathic effect | EC80 |  | 0.4 µg/mL
CSc1nsc(-c2ccccc2)c1C#N | Serotype 72 (group A) | HELA-OHIO | cytopathic effect | EC50 |  | >80 µM
O=S(=O)([O-])c1cc(NS(=O)(=O)c2ccccc2)c2c(S(=O)(=O)[O-])cc(S(=O)(=O)[O-])cc2c1 |  | Human amnion AV3 cells | cytopathic effect | inhibition | 5 µg/mL | 0%
CCCc1nc(-c2c(C)cc(OCCCc3ccc(CO)nn3)cc2C)no1 | serotypes 3 4 5 9 16 18 38 66 75 67 | HeLa | cytopathic effect | EC80 |  | 0.44 µg/mL
O=C(Nc1ccc(S(=O)(=O)[O-])c2cccc(S(=O)(=O)[O-])c12)c1ccccc1 |  | Human amnion AV3 cells | cytopathic effect | inhibition | 5 µg/mL | 0%
O=P1(O)OCC2O[C@@H](n3cnc4c(NO)ncnc43)[C@H](O)C2O1 | TYPE 8 |  |  | MIC |  | 100 µg/mL
CCOC(=O)c1ccc(OCCOc2ccc(-c3snc(SC)c3C#N)cc2)cc1 | Serotype 9 (group B) | HELA-OHIO | cytopathic effect | EC50 |  | >2 µM
Cc1cc(OCCCc2ccc(CO)nn2)cc(C)c1-c1noc(C(F)F)n1 | serotypes 3 4 5 9 16 18 38 66 75 67 | HeLa | cytopathic effect | EC80 |  | 1.39 µg/mL
COc1ccc(C(=O)CCCCOc2ccc(C3=NCCO3)cc2)cc1 | serotype 1A 1B 2 6 14 15 21 22 25 29 30 41 42 45 59 63 67 70 72 86 89 |  |  | MIC80 |  | >283 µM
CCSc1ncnc2c1ncn2[C@@H]1OC2COP(=O)(O)OC2[C@H]1O | TYPE 8 |  |  | MIC |  | 3.2 µg/mL
CCOC(=O)c1ccc(OCCCCOc2ccc(-c3snc(SC)c3C#N)cc2)cc1 | Serotype 29 (group B) | HELA-OHIO | cytopathic effect | EC50 |  | >2 µM
Cc1cc(CCCCCOc2c(C)cc(-c3nnc(C)o3)cc2C)on1 | serotype 2 1A 1B 6 14 21 22 15 25 30 50 67 89 86 41 |  |  | MIC50 |  | 0.34 µg/mL
CSc1nsc(-c2ccc(OCCCCOc3ccc(C#N)cc3)cc2)c1C#N | Serotype 41 (group B) | HELA-OHIO | cytopathic effect | EC50 |  | >2 µM
CN(C)c1nc(C(F)(F)F)nc2c1ncn2Cc1ccc(Cl)c(NC=O)c1 | Serotype 5 | M-HELA | plaque count | inhibition | 8 µM | 36%
CSc1nsc(-c2ccc(OCCOc3ccccc3)cc2)c1C#N | Serotype 15 (group B) | HELA-OHIO | cytopathic effect | EC50 |  | >20 µM
CN(C)c1ccc(Cn2cnc3c(Nc4cccc(F)c4)nc(C(F)(F)F)nc32)cc1 | Serotype 4 | M-HELA | plaque count | EC50 |  | 110 µM
CSc1nsc(-c2ccc(OCCCc3ccccc3)cc2)c1C#N | Serotype 15 (group B) | HELA-OHIO | cytopathic effect | EC50 |  | >20 µM
Cc1cc(CCCCCOc2cc(Cl)c(-c3nnco3)c(Cl)c2)on1 | Serotype 1B |  |  | MIC80 |  | 0.53 µg/mL
CSc1nsc(-c2ccc(OCCc3ccccc3)cc2)c1C#N | Serotype 2 (group B) | HELA-OHIO | cytopathic effect | EC50 |  | 3.9 µM
CSc1ccc(C(=O)CCCCOc2ccc(C#N)cc2)cc1 | serotype 1A 1B 2 6 14 15 21 22 25 29 30 41 42 45 59 63 67 70 72 86 89 |  |  | MIC80 |  | >307 µM
CSc1nsc(-c2ccc(OCCOc3ccc(C#N)cc3)cc2)c1C#N | Serotype 29 (group B) | HELA-OHIO | cytopathic effect | EC50 |  | >2 µM
O=S(=O)([O-])c1ccc(O)c2ccccc12 |  | Human amnion AV3 cells | cytopathic effect | inhibition | 10 µg/mL | 0%